Anti-infective test results gathered from many reports (values: NIAID ChemDB through PubChem).

An empty or dashed field is not shown. Percent inhibition refers to the dose given; in toxicity tests it is the harm to the cells. A number after MIC or MFC names an inhibition level or a share of isolates. ECn: concentration that inhibits the pathogen or its effect by n%. Rows are shuffled and stem from different studies. ICn: concentration for n% inhibition.

structure | test | mutations | target | cell line | tested at | organism | read by | strain | endpoint | value
CCCCCCCC/C=C/CCCCCCCC(=O)Nc1nnc(NCC2CC2)s1 | target |  | Polymerase |  |  | Human cytomegalovirus |  |  | IC50 | <25 µM
CC(=O)c1cccc(-c2cncc(N3CCN(c4ccccn4)CC3)n2)c1 | target |  | UL97 kinase |  | 1 µM | Cytomegalovirus |  |  | inhibition | <50%
Fc1ccc(N2CCCCC2)c(NC(=S)c2ccncc2)c1 | host protein |  | SGK2 |  | 10 µM |  | kinase activity |  | inhibition | -1%
CCOC(=O)c1c(C)nc(OCCCNc2ccnc3cc(Cl)ccc23)nc1-c1ccccc1 | culture |  |  |  |  | Cryptococcus neoformans |  | 27JF | MIC99 | 16 µg/mL
CCC(CC)[C@H](NC(C)=O)[C@@H]1[C@H](O)[C@@H](C(=O)O)C[C@H]1N=C(N)N | culture |  |  | MDCK |  | Influenza A virus |  | Influenza A/Washington/897/80 (H3N2) | EC50 | <0.01 µM
CCCCCCCCCCCNCCN[C@@H]1C[C@@H]2C[C@H]([C@H]1C)C2(C)C | culture |  |  |  |  | Mycobacterium tuberculosis |  |  | MIC | 25 µM
Fc1ccc(-c2cncc(N3CCN(c4ccncc4)CC3)n2)cc1 | target |  | UL97 kinase |  | 1 µM | Cytomegalovirus |  |  | inhibition | <50%
C=CCc1ccc(OC)c(OC)c1 | culture |  |  |  |  | Candida tropicalis | turbidity | 2960 | MIC90 | 340 µg/mL
COC(=O)c1cccc(OC)c1-c1c(OC)cccc1C(=O)OC | culture |  |  |  |  | Mycobacterium tuberculosis |  | H37Rv | MIC | >100 µg/mL
CC(C)=CCN1Cc2cc(Cl)cc3[nH]c(=S)n(c23)C[C@@H]1C | culture | RT-M41L T215Y |  | MT-4 |  | HIV-1 |  |  | EC95 | 0.4 µM
O=C(Nc1nnc(NCCCN2CCCC2=O)s1)c1ccc(Br)cc1 | target |  | Polymerase |  |  | Human cytomegalovirus |  |  | IC50 | >25 µM
CC(Cc1c[nH]c2ccccc12)NCCNC1CCCC(C)C1C | culture |  |  |  |  | Mycobacterium tuberculosis |  |  | MIC | 50 µM
Oc1cccc(C=Nc2ccccc2O)c1 | culture |  |  |  |  | Cryptococcus gattii |  | 23/10993 | MIC99 | 4 µg/mL
NS(=O)(=O)c1ccc(CNc2nnc(NC(=O)c3c(Cl)cccc3Cl)s2)cc1 | target |  | Polymerase |  |  | Human cytomegalovirus |  |  | IC50 | <25 µM
c1ccc(CCCCNCCNCC(c2ccccc2)c2ccccc2)cc1 | culture |  |  |  |  | Mycobacterium tuberculosis |  |  | MIC | 6.25 µM
c1ccc(Oc2ccc(-c3cncc(N4CCN(c5ccccc5)CC4)n3)cc2)cc1 | target |  | UL97 kinase |  |  | Cytomegalovirus |  |  | IC50 | <100 µM
COc1ccc(CCNCCNCc2ccc(OC)c(OC)c2)cc1 | culture |  |  |  |  | Mycobacterium tuberculosis |  |  | MIC | 25 µM
O=C(Nc1nnc(NCc2cccc3ccccc23)s1)c1ccc(S(=O)(=O)F)cc1 | target |  | Polymerase |  |  | Human cytomegalovirus |  |  | IC50 | >25 µM
C#CC[C@@H](C(=O)N[C@H](/C=C/C(=O)OCC)C[C@@H]1CCNC1=O)n1cccc(NC(=O)c2cc(C)on2)c1=O | culture |  |  | H1-HELA | 0.239 µM | Rhinovirus | cytopathic effect / XTT | Serotype 9 | inhibition | 90%
O=C(Nc1nnc(NC2CCN(Cc3ccccc3)CC2)s1)c1cc2ccccc2s1 | target |  | Polymerase |  |  | Human cytomegalovirus |  |  | IC50 | >25 µM
Cc1nc(NCCCCNc2ccnc3cc(Cl)ccc23)nc(-c2ccccc2)c1C(=O)OC(C)C | culture |  |  |  |  | Cryptococcus gattii |  | ATCC 24065 | MIC99 | 8 µg/mL
NC(=O)c1ccc(-c2cncc(N3CCN(c4cccc(Cl)c4)CC3)n2)cc1 | target |  | UL97 kinase |  |  | Cytomegalovirus |  |  | IC50 | <10 µM
C[C@H](Cc1ccc(O)c(O)c1)[C@@H](C)Cc1ccc(O)c(O)c1 | culture |  |  |  |  | Candida tropicalis | broth dilution | CCC 131-1997 | MIC50 | 125 µg/mL
CCCCCCCC/C=C/CCCCCCCC(=O)Nc1nnc(NCCC#N)s1 | target |  | Polymerase |  |  | Human cytomegalovirus |  |  | IC50 | >25 µM
Oc1ccccc1N=Cc1ccccc1 | culture |  |  |  |  | Cryptococcus gattii |  | L 27/01 | MIC99 | 32 µg/mL
c1ccc(-c2cncc(N3CCN(c4ccncc4)CC3)n2)cc1 | target |  | UL97 kinase |  | 1 µM | Cytomegalovirus |  |  | inhibition | <50%
COc1ccccc1CCNCCNCc1ccccc1Sc1ccccc1CO | culture |  |  |  |  | Mycobacterium tuberculosis |  |  | MIC | 50 µM
CCOC(=O)c1cnc(NCCCCNc2ccnc3cc(Cl)ccc23)nc1C | culture |  |  |  |  | Cryptococcus gattii |  | LMM 818 | MIC99 | 11.3 µg/mL
CCCCCNCCNCCc1ccc(F)cc1 | culture |  |  |  |  | Mycobacterium tuberculosis |  |  | MIC | 12.5 µM
CCCCCCCCCCCNc1nnc(NC(=O)c2ccc(C#N)cc2)s1 | target |  | Polymerase |  |  | Human cytomegalovirus |  |  | IC50 | <25 µM
OC(c1cc(-c2ccccc2)nc2c(Cl)cc(Cl)cc12)C1CCCCN1 | culture |  |  | VERO |  | Mycobacterium tuberculosis |  | H37Rv | MIC | 3.13 µg/mL
Cc1ccc(CNCCNCc2ccc(F)cc2)cc1 | culture |  |  |  |  | Mycobacterium tuberculosis |  |  | MIC | 50 µM
CCCCCCCC/C=C/CCCCCCCC(=O)Nc1nnc(NCCc2cccs2)s1 | target |  | Polymerase |  |  | Human cytomegalovirus |  |  | IC50 | <25 µM
CCOC(=O)c1ccc(OCCC2CCN(c3ccc(C)nn3)CC2)cc1 | culture |  |  | KB |  | Rhinovirus | neutral red | K6579 (ICAM-1 receptor group 100) | EC50 | 0.027 µM
COc1ccc(-c2cncc(N3CCN(c4ccc(C(C)=O)cc4)CC3)n2)cc1F | target |  | UL97 kinase |  | 1 µM | Cytomegalovirus |  |  | inhibition | <50%
CCOC(=O)c1c(C)nc(NCCCCNc2ccnc3cc(Cl)ccc23)nc1-c1ccccc1 | culture |  |  |  |  | Cryptococcus gattii |  | 196L/03 | MIC99 | 8 µg/mL
COc1ccc2cc(-c3cncc(N4CCN(c5ccc(OC)c(OC)c5)CC4)n3)ccc2c1 | target |  | UL97 kinase |  | 1 µM | Cytomegalovirus |  |  | inhibition | <50%
Fc1ccccc1CCNCCNCC(c1ccccc1)c1ccccc1 | culture |  |  |  |  | Mycobacterium tuberculosis |  |  | MIC | 50 µM

Repeating the final 4 entries:

| structure | test | mutations | target | cell line | tested at | organism | read by | strain | endpoint | value |
|---|---|---|---|---|---|---|---|---|---|---|
| COc1ccc(-c2cncc(N3CCN(c4ccc(C(C)=O)cc4)CC3)n2)cc1F | target |  | UL97 kinase |  | 1 µM | Cytomegalovirus |  |  | inhibition | <50% |
| CCOC(=O)c1c(C)nc(NCCCCNc2ccnc3cc(Cl)ccc23)nc1-c1ccccc1 | culture |  |  |  |  | Cryptococcus gattii |  | 196L/03 | MIC99 | 8 µg/mL |
| COc1ccc2cc(-c3cncc(N4CCN(c5ccc(OC)c(OC)c5)CC4)n3)ccc2c1 | target |  | UL97 kinase |  | 1 µM | Cytomegalovirus |  |  | inhibition | <50% |
| Fc1ccccc1CCNCCNCC(c1ccccc1)c1ccccc1 | culture |  |  |  |  | Mycobacterium tuberculosis |  |  | MIC | 50 µM |